The numbers were not newly measured in article PMC6534257, “Leishmania infantum arginase: biochemical characterization and inhibition by naturally occurring phenolic substances” (Journal of Enzyme Inhibition and Medicinal Chemistry, 2019), which cites them from elsewhere.

In the data set the test system is axenic amastigote forms of L. donovani. More on the design: method as in PMID 16569852. To be noted: L. donovani axenic amastigotes vs L9 cells ref 36; cited from earlier work.

The structures appear in SMILES notation.

For the molecule `COc1cc(O)c2c(=O)c(O)c(-c3ccc(O)c(O)c3)oc2c1` [Rhamnetin, rhamnetin], the “SI (parasite versus myoblast lineage cells L9)” value was above 20.
